From publication PMC3166295 (PLoS ONE, 2011)

Test system: 8H5 mAb
Test: Mimotope ELISA (HBc-V-1b coated), binding specificity with monoclonal antibodies
Details: HBc-V-1b fusion protein coated at 5 µg/ml; tested with 8H5, other H5 mAbs, anti-HEV, anti-HCV and anti-HBV core mAbs

With `CC[C@H](C)[C@H](NC(=O)[C@@H](NC(=O)[C@H](CC(C)C)NC(=O)[C@@H]1CCCN1C(=O)[C@@H](NC(=O)[C@@H](N)CCC(=O)O)[C@@H](C)O)[C@@H](C)O)C(=O)N[C@@H](C)C(=O)NCC(=O)N[C@@H](CC(C)C)C(=O)N[C@@H](CCCCN)C(=O)N[C@@H](CC(C)C)C(=O)N[C@@H](CCCCN)C(=O)O` [V-1b] as the compound, how does the “antigenic specificity of the ELISA produced with V-1b fused to HBcAg” value read?
Its value is “exclusively specific for 8H5”.
